Measured values from several laboratories, pooled; numbers as filed in NIAID ChemDB.

Common to all: growth or infection tests; species: Candida albicans

ECn is the concentration giving n% inhibition of infection, replication or growth.

OCCSSSCCO ; measure: MIC ; value: 8 µg/mL
COC(=O)CCNC(=S)Nc1ccc(OC)c(OC)c1 ; measure: MIC ; strain: ATCC2094 ; value: 68 µg/mL
C[C@@H]1[C@H](O)[C@@H](C)/C=C/C=C/CC/C=C/C=C/C=C/C=C/C(O[C@H]2O[C@H](C)[C@@H](O)[C@H](N)[C@@H]2O)CC2O[C@](O)(CC(O)C(O)CCC(O)CC(O)CC(O)CC(=O)O[C@H]1C)CC(O)C2C(=O)O ; measure: MIC ; value: 12 µM
Cc1c(-c2ccccc2)c(=O)oc2ccc(-c3cc(-c4ccccc4)c4oc5ccccc5c4n3)cc12 ; method: broth dilution / turbidity ; measure: MIC ; strain: MTCC 227 ; value: 500 µg/mL
Clc1ccc(C(Cn2ccnc2)OCc2ccc(Sc3ccccc3)cc2)c(Cl)c1 ; measure: MIC90 ; strain: 106 isolates ; value: 8 µg/mL
O=c1[nH]cc(F)c(=O)[nH]1 ; measure: MIC ; strain: ATCC 10231 ; value: >100 µg/mL
O=C1C=C(Nc2cccc(Br)c2)C(=O)c2ccccc21 ; method: broth dilution ; measure: MIC100 ; strain: MTCC 3017 ; value: 62.5 µg/mL
O=C(O)c1cn(C2CC2)c2cc(N3CCNCC3)c(F)cc2c1=O ; method: broth dilution ; measure: MIC ; strain: ATCC 10231 ; value: 2 µg/mL
CC(=O)CCCNC(=S)Nc1ccccc1 ; measure: MIC ; strain: ATCC2094 ; value: >128 µg/mL
OCCSSCCO ; measure: MIC ; value: >512 µg/mL
COc1ccc(-c2cc(-c3ccc4oc(=O)c(-c5ccccc5)c(C)c4c3)nc3c2oc2ccccc23)cc1OC ; method: broth dilution / turbidity ; measure: MIC ; strain: MTCC 227 ; value: 200 µg/mL
Cc1ccc(/C(Cl)=N/NC(=S)Nc2ccc(C(=O)NO)cc2)cc1 ; measure: MIC ; value: 1.29 µM
C[C@@]12CCC[C@]3(C)C4=CC(=O)OC[C@]45O[C@@H]5C(OC1=O)[C@@H]23 ; measure: MIC ; strain: 1463D ; value: 32 µg/mL
COC(=O)[C@@H](Br)[C@@H](F)C(=O)OC ; measure: MIC ; strain: ATCC 10231 ; value: 30 µg/mL
CCc1c2cc(OCc3ccccc3)c(OCc3ccccc3)cc2cc[n+]1C ; measure: MIC ; strain: IFO1061 ; value: 250 µg/mL
Cc1c(-c2ccccc2)c(=O)oc2ccc(-c3cc(-c4ccc(F)cc4)c4oc5ccccc5c4n3)cc12 ; method: broth dilution / turbidity ; measure: MIC ; strain: MTCC 227 ; value: 1000 µg/mL
c1ccc2c(c1)cc1[nH]c3ccccc3c1[n+]2CC1CCCC1 ; measure: MIC ; strain: B311 ; value: 250 µg/mL
C/C=C\C(C)=C\[C@H](C)C(=O)C[C@H](O)CC1CC(=O)NC(=O)C1 ; measure: MIC ; strain: IFO 1060 ; value: >100 µg/mL
CCCCOC(=O)/C=C/C(=O)OCCCC ; measure: MIC ; strain: ATCC 10231 ; value: >100 µg/mL
O=C(NO)c1ccc(NC(=S)N/N=C/c2ccccc2O)cc1 ; measure: MIC ; value: 2.66 µM
CC/C=C/[C@H](CC)C/C(=C/[C@@]1(CC)C[C@H](CC)[C@H](CC(=O)O)OO1)CC ; measure: MIC ; value: 5 µg/mL
COC(=O)/C=C\C(=O)OC ; measure: MIC ; strain: ATCC 10231 ; value: >100 µg/mL
CCOP(=O)(OCC)OC[C@@H](O)[C@@H](O)[C@H](O)[C@@H](N)CO ; measure: MIC ; strain: ATCC 10261 ; value: 600 µg/mL
Clc1cc2nc(C3CCNCC3)n(Cc3ccc(CBr)cc3)c2cc1Cl ; measure: MIC ; strain: ATCC 10231 ; value: >100 µM
Clc1ccc(COC(Cn2ccnc2)c2ccc(Cl)cc2Cl)c(Cl)c1 ; method: broth dilution ; measure: MIC100 ; strain: ATCC 40277 ; value: 32 µg/mL
CCc1c2cc(O)c(O)cc2cc[n+]1C ; measure: MIC ; strain: IFO1061 ; value: >500 µg/mL
C=CCc1ccc(O)c(-c2ccc(O)c(CC=C)c2)c1 ; method: broth dilution ; measure: MIC ; strain: YL 345 ; value: 128 µg/mL
CCC(C)n1ncn(-c2ccc(N3CCN(c4ccc(OC[C@H]5CO[C@](Cn6cncn6)(c6ccc(Cl)cc6Cl)O5)cc4)CC3)cc2)c1=O ; method: broth dilution ; measure: MIC ; strain: ATCC 60027 ; value: >150 µg/mL
OC(Cn1cncn1)(Cn1cncn1)c1ccc(F)cc1F ; measure: MIC ; strain: ATCC 64549 ; value: >200 µg/mL
Nc1[nH]c(=O)ncc1F ; measure: MIC90 ; strain: 106 isolates ; value: 32 µg/mL
COc1c(C)cc2ccc(O)c(C=O)c2c1O ; method: MTT / broth dilution ; measure: MIC ; strain: ATCC 90028 ; value: 5 µg/mL
CNC1=CC(=O)c2ccccc2C1=O ; method: broth dilution ; measure: MIC100 ; strain: MTCC 3017 ; value: 15.6 µg/mL
O=C(/C=C/c1ccccc1S(=O)(=O)O)c1cccc(N(CCO)CCO)c1 ; method: broth dilution ; measure: MIC ; strain: ATCC 10231 ; value: 32 µg/mL
CCn1c(C2CCNCC2)nc2cc(Cl)c(Cl)cc21 ; measure: MIC ; strain: ATCC 10231 ; value: >100 µM
CCCCCCOC(=O)/C=C/C(=O)OCCCCCC ; measure: MIC ; strain: ATCC 10231 ; value: >100 µg/mL
O=S(O)Cc1ccccc1 ; measure: MIC ; value: 2 µg/mL
Clc1cc2nc(C3CCNCC3)n(Cc3cccnc3)c2cc1Cl ; measure: MIC ; strain: ATCC 10231 ; value: >100 µM
O=S(CCO)SCc1ccccc1 ; measure: MIC ; value: 16 µg/mL
N#CC[n+]1c2ccccc2cc2[nH]c3ccccc3c21 ; measure: MIC ; strain: B311 ; value: 250 µg/mL
CO[C@H]1OC(=O)C[C@@]2(O)[C@@]13O[C@@H]3C1OC(=O)[C@@]3(C)CCC[C@@]2(C)[C@@H]13 ; measure: MIC ; strain: ATCC 90028 ; value: >64 µg/mL
c1ccc([Se][Se]c2ccccc2)cc1 ; method: broth dilution ; measure: MIC ; value: 4–32 µg/mL
C/C(=N\NC(=S)Nc1ccc(C(=O)O)cc1)c1ccc(Cl)cc1 ; measure: MIC ; value: 2.82 µM
C[C@H](Cc1ccc(O)c(O)c1)[C@@H](C)Cc1ccc(O)c(O)c1 ; method: broth dilution ; measure: MIC80 ; strain: CCC 126-2000 ; value: 250 µg/mL
COc1cc(O)c2c(c1)C(=O)c1c(cc3c(c1O)-c1c(cc(C)c(C(=O)NC(CO)C(=O)O)c1O)[C@H](OC1OC(C)C(O)C(OC4OCC(O)C(O)C4O)C1O)C3O)C2=O ; measure: MIC ; strain: Juntendo 83-2-14 ; value: 3.1 µg/mL
O=C1C=C(NCc2ccccc2)C(=O)c2ccccc21 ; method: broth dilution ; measure: MIC100 ; strain: MTCC 3017 ; value: 250 µg/mL
CC1CC(C)CC(C)C(O)/C(C#N)=C\C=C/CC(C2CCCC2C(=O)O)OC(=O)CC(O)C(C)C1 ; method: resazurin / visual reading ; measure: MIC ; value: 13.3 µg/mL
OCCSSSCc1ccccc1 ; measure: MIC ; value: 128 µg/mL
CCOc1ccc(Cc2c3cc(OCC)c(OCC)cc3cc[n+]2C)cc1OCC ; measure: MIC ; strain: IFO1061 ; value: >500 µg/mL
O=C(O)c1ccc(NC(=S)N/N=C/c2ccccc2)cc1 ; measure: MIC ; value: 1.73 µM
CC1CCCN(CC(C)Cc2ccc(C(C)(C)C)cc2)C1 ; measure: MIC ; strain: 29-3-102 ; value: 43.1 µM
CC1(C)CCC(C)(C)c2cc(-c3nc4ccc([N+](=O)[O-])cc4[nH]3)ccc21 ; measure: MIC ; value: 100 µg/mL
CC(=O)N1CCN(c2ccc(OC[C@H]3CO[C@](Cn4ccnc4)(c4ccc(Cl)cc4Cl)O3)cc2)CC1 ; measure: MIC50 ; strain: 106 isolates ; value: 16 µg/mL
COc1ccc(/C=N/NC(=S)Nc2ccc(C(=O)O)cc2)cc1OC ; measure: MIC ; value: 2.45 µM
Fc1ccc(Cn2c(C3CCNCC3)nc3cc(Cl)c(Cl)cc32)cc1 ; measure: MIC ; strain: ATCC 10231 ; value: >100 µM
CCOC(=O)/C=C/C(=O)OCC ; measure: MIC ; strain: ATCC 10231 ; value: >100 µg/mL
O=C(O)c1ccc(NC(=S)N/N=C/c2ccc(Cl)cc2)cc1 ; measure: MIC ; value: 2.99 µM
[Na+].[O-]Cl ; method: broth dilution ; measure: MIC ; strain: ATCC 10231 ; value: 50 µg/mL
O=C(O)CN1C(=O)/C(=C/c2ccc(OCc3ccccc3)c(OCc3ccccc3)c2)SC1=S ; measure: EC50 ; strain: G418-sensitive ; value: 4 µM
CC/C=C/C(CC)CCC[C@@]1(CC)C[C@H](CC)[C@H](CC(=O)O)OO1 ; measure: EC50 ; value: 5 µg/mL
COc1ccc(-c2cc(=O)c3c(O)c(OC)c(O)cc3o2)cc1OC ; measure: MIC ; value: >100 µg/mL
c1ccc(CCC[n+]2c3ccccc3cc3[nH]c4ccccc4c32)cc1 ; measure: MIC ; strain: B311 ; value: 31.2 µg/mL
OC(Cn1cncn1)(Cn1cncn1)c1ccc(F)cc1F ; measure: MIC ; strain: ATCC 90028 ; value: 0.12 µg/mL
O=C1C=C(Nc2ccccc2)C(=O)c2ccccc21 ; method: broth dilution ; measure: MIC100 ; strain: MTCC 3017 ; value: 15.6 µg/mL
C[C@@H]1[C@H](O)[C@@H](C)/C=C/C=C/CC/C=C/C=C/C=C/C=C/C(O[C@H]2O[C@H](C)[C@@H](O)[C@H](N)[C@@H]2O)CC2O[C@](O)(CC(O)C(O)CCC(O)CC(O)CC(O)CC(=O)O[C@H]1C)CC(O)C2C(=O)O ; measure: MIC ; strain: ATCC 90028 ; value: 0.5 µg/mL
CC(CP(c1cccc(C(F)(F)F)c1)c1cccc(C(F)(F)F)c1)(CP(c1cccc(C(F)(F)F)c1)c1cccc(C(F)(F)F)c1)CP(c1cccc(C(F)(F)F)c1)c1cccc(C(F)(F)F)c1 ; measure: MIC ; value: 500 µg/mL
O=c1ccc2ccc(O)cc2o1 ; measure: MIC ; value: >100 µg/mL
O=C(NO)c1ccc(NC(=S)N/N=C/c2ccc(O)cc2)cc1 ; measure: MIC ; value: 2.98 µM
COc1ccc(Cc2cc3cc(OC)c(OC)cc3c[nH+]2)cc1OC ; measure: MIC ; strain: IFO1061 ; value: >500 µg/mL
Cc1ccc(/C=N/NC(=S)Nc2ccc(C(=O)NO)cc2)cc1 ; measure: MIC ; value: 2.16 µM
COC(=O)CCNC(=S)Nc1ccc(OC)cc1 ; measure: MIC ; strain: ATCC2094 ; value: 5 µg/mL
COC(=O)/C=C1/NN=C(c2ccccn2)N(c2ccccn2)C1=O ; method: agar diffusion ; measure: MIC50 ; strain: Clinical isolates (20 strains) ; value: 512 µg/mL
CCC(C)/C=C(\C)C(=O)CC1(O)CC(=O)c2c(O)cc(O)cc2C1 ; measure: MIC ; value: 40 µg/mL
O=C1C=C(NCCN2CCOCC2)C(=O)c2ccccc21 ; method: broth dilution ; measure: MIC100 ; strain: MTCC 3017 ; value: 62.5 µg/mL
CCOC(=O)CCNC(=S)Nc1ccccc1 ; measure: MIC ; strain: ATCC2094 ; value: 33 µg/mL
COc1ccc(-c2cc(-c3ccc4oc(=O)c(-c5ccccc5)c(C)c4c3)nc3c2oc2ccccc23)cc1 ; method: broth dilution / turbidity ; measure: MIC ; strain: MTCC 227 ; value: 1000 µg/mL

The last 11 rows once more:

SMILES,method,measure,strain,value
CC(CP(c1cccc(C(F)(F)F)c1)c1cccc(C(F)(F)F)c1)(CP(c1cccc(C(F)(F)F)c1)c1cccc(C(F)(F)F)c1)CP(c1cccc(C(F)(F)F)c1)c1cccc(C(F)(F)F)c1,,MIC,,500 µg/mL
O=c1ccc2ccc(O)cc2o1,,MIC,,>100 µg/mL
O=C(NO)c1ccc(NC(=S)N/N=C/c2ccc(O)cc2)cc1,,MIC,,2.98 µM
COc1ccc(Cc2cc3cc(OC)c(OC)cc3c[nH+]2)cc1OC,,MIC,IFO1061,>500 µg/mL
Cc1ccc(/C=N/NC(=S)Nc2ccc(C(=O)NO)cc2)cc1,,MIC,,2.16 µM
COC(=O)CCNC(=S)Nc1ccc(OC)cc1,,MIC,ATCC2094,5 µg/mL
COC(=O)/C=C1/NN=C(c2ccccn2)N(c2ccccn2)C1=O,agar diffusion,MIC50,Clinical isolates (20 strains),512 µg/mL
CCC(C)/C=C(\C)C(=O)CC1(O)CC(=O)c2c(O)cc(O)cc2C1,,MIC,,40 µg/mL
O=C1C=C(NCCN2CCOCC2)C(=O)c2ccccc21,broth dilution,MIC100,MTCC 3017,62.5 µg/mL
CCOC(=O)CCNC(=S)Nc1ccccc1,,MIC,ATCC2094,33 µg/mL
COc1ccc(-c2cc(-c3ccc4oc(=O)c(-c5ccccc5)c(C)c4c3)nc3c2oc2ccccc23)cc1,broth dilution / turbidity,MIC,MTCC 227,1000 µg/mL

Blank or dashed fields: not listed here. Two numbers with a dash give a range or band. Rows are shuffled and stem from different studies. MIC50, MIC90 and the like: level of inhibition, or share of isolates inhibited.